Measurements from publication PMC3084272, “GPVI and GPIbα Mediate Staphylococcal Superantigen-Like Protein 5 (SSL5) Induced Platelet Activation and Direct toward Glycans as Potential Inhibitors” (2011).

Amino acid sequences for entries named in this document (tags omitted). Residues count along the entry.
UniProt Q2G1S6, 31-234 limits assumed: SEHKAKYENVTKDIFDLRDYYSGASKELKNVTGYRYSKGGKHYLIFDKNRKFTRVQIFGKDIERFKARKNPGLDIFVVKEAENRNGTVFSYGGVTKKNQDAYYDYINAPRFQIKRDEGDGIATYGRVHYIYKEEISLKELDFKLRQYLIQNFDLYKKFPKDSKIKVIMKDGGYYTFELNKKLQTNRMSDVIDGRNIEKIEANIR

Molecular target: SSL5 (Staphylococcal superantigen-like protein 5) (Staphylococcus aureus, UniProt Q2G1S6)
Assay: printed glycan microarray (CFG Core H), fluorescent-labelled SSL5
Conditions: SSL5 200 µg/ml; glycan immobilised through linker

Row | Molecule | Mean RFU
1 | CC(=O)N[C@H]1[C@H](OCCCN)O[C@H](CO)[C@@H](O[C@@H]2O[C@H](CO)[C@H](O)[C@H](O[C@@H]3O[C@H](CO)[C@@H](O[C@@H]4O[C@H](CO)[C@H](O)[C@H](O[C@]5(C(=O)O)C[C@H](O)[C@@H](NC(C)=O)[C@H]([C@H](O)[C@H](O)CO)O5)[C@H]4O)[C@H](O[C@@H]4O[C@@H](C)[C@@H](O)[C@@H](O)[C@@H]4O)[C@H]3NC(C)=O)[C@H]2O)[C@@H]1O | 15918 RFU
2 | CC(=O)N[C@H]1[C@H](OCCCN)O[C@H](CO)[C@@H](O[C@@H]2O[C@H](CO)[C@H](O)[C@H](O[C@]3(C(=O)O)C[C@H](O)[C@@H](NC(C)=O)[C@H]([C@H](O)[C@H](O)CO)O3)[C@H]2O)[C@@H]1O[C@@H]1O[C@H](CO)[C@H](O)[C@H](O[C@]2(C(=O)O)C[C@H](O)[C@@H](NC(C)=O)[C@H]([C@H](O)[C@H](O)CO)O2)[C@H]1O | 7865 RFU
3 | CC(=O)N[C@H]1[C@H](OCCN)O[C@H](CO)[C@@H](O[C@@H]2O[C@H](CO)[C@H](O)[C@H](O[C@@H]3O[C@H](CO)[C@@H](O[C@@H]4O[C@H](CO)[C@H](O)[C@H](O[C@@H]5O[C@H](CO)[C@@H](O[C@@H]6O[C@H](CO)[C@H](O)[C@H](O[C@]7(C(=O)O)C[C@H](O)[C@@H](NC(C)=O)[C@H]([C@H](O)[C@H](O)CO)O7)[C@H]6O)[C@H](O)[C@H]5NC(C)=O)[C@H]4O)[C@H](O)[C@H]3NC(C)=O)[C@H]2O)[C@@H]1O | 15827 RFU
4 | CC(=O)N[C@@H]1[C@@H](O)[C@H](O[C@@H]2O[C@H](CO)[C@@H](O[C@@H]3O[C@H](CO[C@H]4O[C@H](CO)[C@@H](O)[C@H](O)[C@@H]4O[C@@H]4O[C@H](CO)[C@@H](O[C@@H]5O[C@H](CO[C@]6(C(=O)O)C[C@H](O)[C@@H](NC(C)=O)[C@H]([C@H](O)[C@H](O)CO)O6)[C@H](O)[C@H](O)[C@H]5O)[C@H](O)[C@H]4NC(C)=O)[C@@H](O)[C@H](O[C@H]4O[C@H](CO)[C@@H](O)[C@H](O)[C@@H]4O[C@@H]4O[C@H](CO)[C@@H](O[C@@H]5O[C@H](CO)[C@H](O)[C@H](O[C@]6(C(=O)O)C[C@H](O)[C@@H](NC(C)=O)[C@H]([C@H](O)[C@H](O)CO)O6)[C@H]5O)[C@H](O)[C@H]4NC(C)=O)[C@@H]3O)[C@H](O)[C@H]2NC(C)=O)[C@@H](CO)O[C@H]1NC(=O)C[C@H](N)C(=O)O | 8043 RFU
5 | Neu5Acα2-3Galβ1-3(Neu5Acα2-3Galβ1-4GlcNAcβ1-6)GalNAc–Sp14 | 9183 RFU
6 | Neu5Acα2-6Galβ1-4GlcNAcβ1-2Manα1-3(Neu5Acα2-3Galβ1-4GlcNAcβ1-2Manα1-6)Manβ1-4GlcNAcβ1-4GlcNAcβ-Sp12 | 9385 RFU
7 | CC(=O)N[C@H]1[C@H](OCCN)O[C@H](CO)[C@@H](O[C@@H]2O[C@H](CO)[C@H](O)[C@H](O[C@]3(C(=O)O)C[C@H](O)[C@@H](NC(=O)CO)[C@H]([C@H](O)[C@H](O)CO)O3)[C@H]2O)[C@@H]1O[C@@H]1O[C@@H](C)[C@@H](O)[C@@H](O)[C@@H]1O | 8453 RFU
8 | CC(=O)N[C@H]1[C@H](OCCN)O[C@H](CO)[C@@H](O[C@@H]2O[C@H](CO)[C@H](O)[C@H](O[C@@H]3O[C@H](CO)[C@@H](O[C@@H]4O[C@H](CO)[C@H](O)[C@H](O[C@@H]5O[C@H](CO)[C@@H](O[C@@H]6O[C@H](CO)[C@H](O)[C@H](O[C@]7(C(=O)O)C[C@H](O)[C@@H](NC(C)=O)[C@H]([C@H](O)[C@H](O)CO)O7)[C@H]6O)[C@H](O[C@@H]6O[C@@H](C)[C@@H](O)[C@@H](O)[C@@H]6O)[C@H]5NC(C)=O)[C@H]4O)[C@H](O[C@@H]4O[C@@H](C)[C@@H](O)[C@@H](O)[C@@H]4O)[C@H]3NC(C)=O)[C@H]2O)[C@@H]1O[C@@H]1O[C@@H](C)[C@@H](O)[C@@H](O)[C@@H]1O | 13772 RFU
9 | CC(=O)N[C@H]1[C@H](O[C@H]2[C@@H](O)[C@@H](CO)O[C@@H](OCCCN)[C@@H]2O)O[C@H](CO)[C@@H](O[C@@H]2O[C@H](CO)[C@H](O)[C@H](O[C@]3(C(=O)O)C[C@H](O)[C@@H](NC(C)=O)[C@H]([C@H](O)[C@H](O)CO)O3)[C@H]2O)[C@@H]1O[C@@H]1O[C@@H](C)[C@@H](O)[C@@H](O)[C@@H]1O | 17612 RFU
10 | CC(=O)N[C@H]1[C@H](OCCN)O[C@H](CO)[C@@H](O[C@@H]2O[C@H](CO)[C@H](O)[C@H](O[C@@H]3O[C@H](CO)[C@@H](O[C@@H]4O[C@H](CO)[C@H](O)[C@H](O[C@]5(C(=O)O)C[C@H](O)[C@@H](NC(C)=O)[C@H]([C@H](O)[C@H](O)CO)O5)[C@H]4O)[C@H](O)[C@H]3NC(C)=O)[C@H]2O)[C@@H]1O | 14449 RFU
11 | CC(=O)N[C@H]1[C@H](O[C@H]2[C@@H](O)[C@@H](CO)O[C@@H](O[C@H]3[C@H](O)[C@@H](CO)O[C@@H](OCCN)[C@@H]3NC(C)=O)[C@@H]2O)O[C@H](CO)[C@@H](O[C@@H]2O[C@H](CO)[C@H](O)[C@H](O[C@]3(C(=O)O)C[C@H](O)[C@@H](NC(C)=O)[C@H]([C@H](O)[C@H](O)CO)O3)[C@H]2O)[C@@H]1O | 10202 RFU
12 | CC(=O)N[C@H]1[C@H](OC[C@H]2OC(O[C@H](C)[C@H](N)C(=O)O)[C@H](NC(C)=O)[C@@H](O[C@@H]3O[C@H](CO)[C@H](O)[C@H](O)[C@H]3O)[C@H]2O)O[C@H](CO)[C@@H](O[C@@H]2O[C@H](CO)[C@H](O)[C@H](O[C@]3(C(=O)O)C[C@H](O)[C@@H](NC(C)=O)[C@H]([C@H](O)[C@H](O)CO)O3)[C@H]2O)[C@@H]1O (stereo partly shown) | 8578 RFU
13 | CC(=O)N[C@H]1[C@H](OCCN)O[C@H](CO)[C@@H](O[C@@H]2O[C@H](CO)[C@H](O)[C@H](O[C@]3(C(=O)O)C[C@H](O)[C@@H](NC(C)=O)[C@H]([C@H](O)[C@H](O)CO)O3)[C@H]2O)[C@@H]1O[C@@H]1O[C@@H](C)[C@@H](O)[C@@H](O)[C@@H]1O | 14264 RFU
14 | Neu5Acα2-3Galβ1-4GlcNAcβ1-2Manα1-3(Neu5Acα2-3Galβ1-4GlcNAcβ1-2Manα1-6)Manβ1-4GlcNAcβ1-4GlcNAcβ-Sp12 | 12517 RFU
15 | CC(=O)N[C@H]1[C@H](OCCN)O[C@H](CO)[C@@H](O[C@@H]2O[C@H](CO)[C@H](O)[C@H](O[C@]3(C(=O)O)C[C@H](O)[C@@H](NC(C)=O)[C@H]([C@H](O)[C@H](O)CO)O3)[C@H]2NC(C)=O)[C@@H]1O | 9449 RFU
16 | CC(=O)N[C@H]1[C@H](OCCCN)O[C@H](CO)[C@@H](O[C@@H]2O[C@H](CO)[C@H](O)[C@H](O[C@]3(C(=O)O)C[C@H](O)[C@@H](NC(C)=O)[C@H]([C@H](O)[C@H](O)CO)O3)[C@H]2O)[C@@H]1O | 13546 RFU
17 | CC(=O)N[C@H]1[C@H](OCCN)O[C@H](CO)[C@@H](O[C@@H]2O[C@H](CO)[C@H](O)[C@H](O[C@]3(C(=O)O)C[C@H](O)[C@@H](NC(C)=O)[C@H]([C@H](O)[C@H](O)CO)O3)[C@H]2O)[C@@H]1O | 9762 RFU
18 | CC(=O)N[C@H]1[C@H](OCCCN)O[C@H](CO)[C@@H](O[C@@H]2O[C@H](CO)[C@H](O)[C@H](O[C@]3(C(=O)O)C[C@H](O)[C@@H](NC(C)=O)[C@H]([C@H](O)[C@H](O)CO)O3)[C@H]2O)[C@@H]1O[C@@H]1O[C@@H](C)[C@@H](O)[C@@H](O)[C@@H]1O | 15098 RFU
19 | CC(=O)N[C@H]1[C@H](OC[C@H]2OC(O[C@H](C)[C@H](N)C(=O)O)[C@H](NC(C)=O)[C@@H](O[C@@H]3O[C@H](CO)[C@H](O)[C@H](O[C@]4(C(=O)O)C[C@H](O)[C@@H](NC(C)=O)[C@H]([C@H](O)[C@H](O)CO)O4)[C@H]3O)[C@H]2O)O[C@H](CO)[C@@H](O[C@@H]2O[C@H](CO)[C@H](O)[C@H](O[C@]3(C(=O)O)C[C@H](O)[C@@H](NC(C)=O)[C@H]([C@H](O)[C@H](O)CO)O3)[C@H]2O)[C@@H]1O[C@@H]1O[C@@H](C)[C@@H](O)[C@@H](O)[C@@H]1O (stereo partly shown) | 7498 RFU
